Results of unrelated studies side by side (data: NIAID ChemDB).

Common to all: enzyme or target tests; agent: HIV-1; target: Integrase; read-out: IC50

Blank or dashed fields: not listed here. ICn is the concentration giving n% inhibition. a–b is a range or a potency band. Conditions beyond the fields shown may differ between rows.

Cc1cc2nc3nc(N)nc(NS(=O)(=O)c4cc(C)c(Cl)cc4S)n3c2cc1C ; value: 3.4 µM
O=c1c(O)c(-c2ccc(O)c(O)c2)oc2cc(O)c(O)c(O)c12 ; method: substrate cleavage ; value: 0.8 µM
COc1cc2c(cc1OC)C(=O)N1CSCC1C(=O)S2 ; method: 3′ processing ; value: 650 µM
NC(N)=NS(=O)(=O)c1ccc(Nc2c3ccccc3nc3c(C(=O)NC(CO)(CO)CO)cccc23)cc1 ; strain or isolate: RF ; method: strand transfer ; value: >180 µM
O=C1/C(=C/c2cc(O)c(O)c(O)c2)CN(Cc2ccccc2)C/C1=C\c1cc(O)c(O)c(O)c1 ; method: disintegration ; value: 2 µM
Nc1nc2c(ncn2C2CC(OP(=O)(O)OCC3OC(n4cnc5c(N)ncnc54)CC3O)C(COP(=O)(O)O)O2)c(=O)[nH]1 ; method: strand transfer ; value: 100 µM
O=C(N[C@H](Cc1ccc(O)c(O)c1)C(=O)OCc1ccccc1)c1ccc([N+](=O)[O-])cc1 ; method: strand transfer ; value: 31.3–45.8 µM
O=c1oc2ccccc2c(O)c1C(c1ccc(C(c2c(O)c3ccccc3oc2=O)c2c(O)c3ccccc3oc2=O)cc1)c1c(O)c2ccccc2oc1=O ; method: 3′ processing ; value: 1.1 µM
O=c1c(O)c(-c2ccc(O)c(O)c2)oc2cc(O)ccc12 ; method: substrate cleavage ; value: 28.4 µM
COc1cccc2c1C(=O)c1c(O)c3c(c(O)c1C2=O)C[C@@](O)(C(=O)CO)C[C@@H]3OC1CC(N2CCOCC2)C(O)[C@H](C)O1 ; strain or isolate: RF ; method: strand transfer ; value: 1.5 µM
O=C(Nc1ccc2c(c1)C(=O)N(O)C(=O)C2C(=O)NCc1ccc(F)cc1)c1ccccc1 ; method: strand transfer ; value: 0.21 µM
N#C/C(=C\c1ccc(O)c(O)c1)C(=O)NCCCCCCNC(=O)/C(C#N)=C/c1ccc(O)c(O)c1 ; method: 3′ processing / substrate cleavage ; value: 1.35 µM
O=C(O)C(=Cc1ccc(O)c(O)c1)C(=Cc1ccc(O)c(O)c1)C(=O)O ; method: 3′ processing ; value: 0.83 µM
O=C(O)C(=O)CC(=O)c1cccn1Cc1ccc(-c2ccccc2)cc1 ; method: strand transfer ; value: 7.5 µM
[N-]=[N+]=NCc1cccc(C(=O)CC(=O)C(=O)O)c1 ; method: 3′ processing ; value: 70 µM
O=C(NCc1ccc(F)cc1)C1C(=O)N(O)C(=O)c2cc(F)ccc21 ; method: strand transfer ; value: 0.5 µM
COC(=O)[C@@]1(O)C[C@@H](OC(=O)/C=C/c2ccc(O)c(O)c2)[C@H](O)[C@H](OC(=O)/C=C/c2cc(OC)c(O)c(OC)c2)C1 ; method: gel / radiometric ; value: 23.6 µM
N#C/C(=C\c1ccc(O)c(O)c1)C(=O)NCCCCCCCCNC(=O)/C(C#N)=C/c1ccc(O)c(O)c1 ; method: strand transfer ; value: 5–10 µM
CCCCCc1cc(O)cc2c1Oc1cc(O)cc(C(=O)CCCC)c1C(=O)O2 ; method: strand transfer ; value: 123.7 µM
O=C(O)c1ccc2ccc(/C=C/c3cc(O)c(O)c(O)c3)nc2c1O ; method: 3′ processing ; value: 2.4 µM
O=C1Sc2ccc(Cl)cc2C(=O)N2CS(=O)CC12 ; method: strand transfer ; value: 240 µM
Cc1cc(S(=O)(=O)Nc2nc(N)nc3nc4ccccc4n23)c(S)cc1Cl ; value: 7.1 µM
O=C1C(=Cc2ccc(Cl)c(Cl)c2)CCCC1=Cc1ccc(Cl)c(Cl)c1 ; method: 3′ processing ; value: >100 µM
N#C/C(=C\c1cc(O)c(O)c(O)c1)C(=O)NCCCCNC(=O)/C(C#N)=C/c1cc(O)c(O)c(O)c1 ; method: strand transfer ; value: 0.57 µM
Nc1ccn(C2CC(O)C(COP(=O)(O)OC3CC(n4cnc5c(=O)[nH]c(N)nc54)OC3COP(=O)(O)O)O2)c(=O)n1 ; method: 3′ processing ; value: >100 µM
O=C1/C(=C/c2cc(O)c(O)c(O)c2)CCC/C1=C\c1cc(O)c(O)c(O)c1 ; method: 3′ processing ; value: 1.4 µM
Cc1cn(C2CC(O)C(COP(=O)(O)OC3CC(n4cc(C)c(=O)[nH]c4=O)OC3COP(=O)(O)OC3CC(n4ccc(N)nc4=O)OC3COP(=O)(O)O)O2)c(=O)[nH]c1=O ; method: strand transfer ; value: 13 µM
O=C(/C=C/c1ccc(O)c2c1[C@H](C(=O)O[C@H](Cc1ccc(O)c(O)c1)C(=O)O)[C@@H](c1ccc(O)c(O)c1)O2)O[C@H](Cc1ccc(O)c(O)c1)C(=O)O ; method: 3′ processing ; value: 0.48 µM
CN(C)C1C(=O)C(C(=O)NCNC2C(=O)N3C2SC(C)(C)C3C(=O)O)=C(O)C2(O)C(=O)C3=C(O)c4c(O)cccc4C(C)(O)C3CC12 ; strain or isolate: RF ; method: 3′ processing ; value: 2.2 µM
O=C1/C(=C/c2cc(O)c(O)c(O)c2)COC/C1=C\c1cc(O)c(O)c(O)c1 ; method: 3′ processing ; value: 6 µM
Cc1cc(S(=O)(=O)Nc2nnc3cc(C(F)(F)F)cc(C)n23)c(S)cc1Cl ; value: 11.9 µM
O=C1OC2C(O)COC2(O)C1(O)Cc1cc(O)c(O)c(Br)c1Br ; method: strand transfer ; value: 6.1–9.8 µM
N#C/C(=C\c1ccc(O)c(O)c1)C(=O)NCCCc1ccccc1 ; method: 3′ processing / substrate cleavage ; value: 10–100 µM
O=C1/C(=C/c2ccc([N+](=O)[O-])c(O)c2)CNC/C1=C\c1ccc([N+](=O)[O-])c(O)c1 ; method: 3′ processing ; value: >100 µM
N#C/C(=C\c1ccc(O)c(O)c1)C(=O)NCN1CCN(C(=O)/C(C#N)=C/c2ccc(O)c(O)c2)CC1 ; method: 3′ processing / substrate cleavage ; value: 10–100 µM
CC(=O)OC1CC[C@@]2(C)C(CC[C@]3(C)C2CC=C2C4CC(C)(C)CC[C@]4(C(=O)O)CC[C@]23C)C1(C)C ; method: strand transfer / absorbance ; value: >100 µg/mL
Nc1ccn(C2CC(OP(=O)(O)OCC3OC(n4cnc5c(N)ncnc54)CC3O)C(COP(=O)(O)O)O2)c(=O)n1 ; method: strand transfer ; value: 13 µM
O=C(/C=C/c1ccc(O)c2c1[C@H](C(=O)O)[C@@H](c1ccc(O)c(O)c1)O2)O[C@H](Cc1ccc(O)c(O)c1)C(=O)O ; value: 1.4 µM
O=S(=O)(Nc1nnc2n1-c1ccccc1CC2)c1ccc(Cl)cc1S ; value: 13.8 µM
CCOC(=O)CC1C/C(=C\c2ccc(O)c(O)c2)C(=O)/C(=C/c2ccc(O)c(O)c2)C1 ; method: 3′ processing ; value: 2.8 µM
O=C(Nc1ccc(C(=O)O)c(O)c1)c1ccc(C(=O)Nc2ccc(O)c(C(=O)O)c2)cc1 ; method: strand transfer ; value: 38.6–45.8 µM
CN/N=C(/c1nc2ccc([N+](=O)[O-])cc2[nH]c1=O)C(O)c1ccc(C(O)/C(=N/NC)c2nc3ccc([N+](=O)[O-])cc3[nH]c2=O)cc1 ; strain or isolate: RF ; method: 3′ processing ; value: >160 µM
N#C/C(=C\c1ccc(O)c(O)c1)C(=O)NCc1cccc(CNC(=O)/C(C#N)=C/c2ccc(O)c(O)c2)c1 ; method: 3′ processing / substrate cleavage ; value: 10–100 µM
CN1CCC(C2Sc3ccccc3C(=O)N3CCCC23)CC1 ; method: 3′ processing ; value: >1000 µM
O=C1/C(=C/c2ccc([N+](=O)[O-])c(O)c2)CN(Cc2ccccc2)C/C1=C\c1ccc([N+](=O)[O-])c(O)c1 ; method: 3′ processing ; value: >100 µM
C[C@@](O)(/C=C/[C@H]1CC=CC(=O)O1)[C@@H](C[C@@H](O)\C=C/C=C\C=C\CO)OP(=O)(O)O ; method: strand transfer ; value: 1.6–2.7 µM
Cc1cn(C2CC(OP(=O)(O)OCC3OC(n4cnc5c(N)ncnc54)CC3O)C(COP(=O)(O)OC3CC(n4ccc(N)nc4=O)OC3COP(=O)(O)O)O2)c(=O)[nH]c1=O ; method: 3′ processing ; value: 27 µM
C=CCNC(=O)C1C(=O)N(O)C(=O)c2ccccc21 ; method: strand transfer ; value: 50 µM
COc1ccc2c(c1)C(=O)N1CSCC1C(=O)S2 ; method: 3′ processing ; value: 215 µM

Repeating the final 6 entries:

SMILES	strain or isolate	method	value
CN1CCC(C2Sc3ccccc3C(=O)N3CCCC23)CC1	-	3′ processing	>1000 µM
O=C1/C(=C/c2ccc([N+](=O)[O-])c(O)c2)CN(Cc2ccccc2)C/C1=C\c1ccc([N+](=O)[O-])c(O)c1	-	3′ processing	>100 µM
C[C@@](O)(/C=C/[C@H]1CC=CC(=O)O1)[C@@H](C[C@@H](O)\C=C/C=C\C=C\CO)OP(=O)(O)O	-	strand transfer	1.6–2.7 µM
Cc1cn(C2CC(OP(=O)(O)OCC3OC(n4cnc5c(N)ncnc54)CC3O)C(COP(=O)(O)OC3CC(n4ccc(N)nc4=O)OC3COP(=O)(O)O)O2)c(=O)[nH]c1=O	-	3′ processing	27 µM
C=CCNC(=O)C1C(=O)N(O)C(=O)c2ccccc21	-	strand transfer	50 µM
COc1ccc2c(c1)C(=O)N1CSCC1C(=O)S2	-	3′ processing	215 µM